Measured data: PubChem BioAssay AID1224833 (University of Georgia, 2016)

- Assay: 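Host factors restraining rotavirus as candidate antiviral genes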 (primary screen)
- System: monkey MA104 kidney cells
- Reagents: siRNA pool against human genes, 50 nM
- Timing: 48 h knock-down before infection; read 24 h after infection
- Challenge: infection with rotavirus strain RV3 two days after transfection; infectious dose for this stage not given
- Read-out: 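Rotavirus antigen per well by fluorescent immunoassay, normalised to non-targeting control wells on each plate and given as a standard z-score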
- Scale: z-score vs non-targeting control: higher = more rotavirus replication than with non-targeting control
- Active means: In these data the active calls have z-score vs non-targeting control at about -1 or lower, or at about 1 or higher
- Meaning of the calls: active = z-score beyond 1 either way; inactive = z-score within 1 of zero
This is an unselected part of about 12,000 reagents. About 5,600 of them (46%) count as active. 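Active calls cover z-scores past 1 in both directions, so they include lowered as well as raised rotavirus replication.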 Reagent sequences are not shown.

no.	gene knocked down	z-score vs non-targeting control	Call
1	TAS2R8	-1.52	active
2	SNX22	-0.168	inactive
3	OR4K1	-0.35	inactive
4	TMED5	-0.899	inactive
5	SNN	-1.03	active
6	SLC51B	-0.817	inactive
7	RBM24	0.459	inactive
8	SWT1	-1.07	active
9	TMEM11	2.36	active
10	ITGA3	-0.911	inactive
11	UQCC4	-1.57	active
12	MOGS	0.684	inactive
13	TEX47	1.16	active
14	PAQR3	-1.01	active
15	ENPP1	-2.76	active
16	PRNP	-1.94	active
17	EAPP	0.637	inactive
18	XYLT2	0.523	inactive
19	HOXA11	0.871	inactive
20	PRSS16	0.531	inactive
21	FRMD7	-2.04	active
22	KHDRBS1	-1.18	active
23	GAST	-0.37	inactive
24	EVX1	0.689	inactive
25	KPLCE	-1.05	active
26	PAPLN	-0.981	inactive
27	MRGPRD	-1.81	active
28	OR4D9	-2.26	active
29	HOXA5	-0.576	inactive
30	SIT1	2.19	active
31	MRPL17	-0.92	inactive
32	TUBB1	0.587	inactive
33	RBMS1	-0.359	inactive
34	SULT1C3	-1.14	active
35	FRAT2	-2.39	active
36	OR4F17	-0.881	inactive
37	RBMY1D	-3.22	active
38	RARS1	-0.844	inactive
39	FUT6	1.6	active
40	THSD4	-1.58	active

The list goes on (4 carried over from the part before).
no.	gene knocked down	z-score vs non-targeting control	Call
37	RBMY1D	-3.22	active
38	RARS1	-0.844	inactive
39	FUT6	1.6	active
40	THSD4	-1.58	active
41	CKLF	-1.55	active
42	RPL27	2.32	active
43	RFTN2	0.452	inactive
44	ZBTB32	0.748	inactive
45	ARRDC1	1.32	active
46	MUTYH	-1.44	active
47	ODAD2	1.04	active
48	FSCN2	-0.496	inactive
49	DNAJC25	-1.15	active
50	TSPYL5	1.02	active
51	PFDN5	0.625	inactive
52	ROBO2	-0.245	inactive
53	RBP2	-1.14	active
54	PHB1	1.29	active
55	ZNF430	0.0774	inactive
56	CHST12	-2.21	active
57	NOL4L	-0.247	inactive
58	STRIP2	-0.653	inactive
59	OR56B1	1.25	active
60	RSAD1	2.23	active
61	ACTRT2	-0.176	inactive
62	COMMD9	0.681	inactive
63	SMYD3	-1.89	active
64	JMJD7	-1.58	active
65	TMEM248	1.7	active
66	LZTR1	-0.702	inactive
67	FLRT1	-0.523	inactive
68	TEDDM1	0.573	inactive
69	PRRT3	-1.28	active
70	SEMA6D	-0.0983	inactive
71	BOK	-1.31	active
72	CCL14	0.653	inactive
73	EMP3	-0.826	inactive
74	TFPT	-0.0788	inactive
75	RPS28	-0.952	inactive
